{
  "source": "paper PMC8341399",
  "about": "“A STING-based fluorescent polarization assay for monitoring activities of cyclic dinucleotide metabolizing enzymes” (RSC Chemical Biology, 2020)",
  "key": {"[1]": {"system": "poxin", "assay": "Poxin cGAMP hydrolysis tracking, FP assay detection", "format": "biochemical, Orthopoxvirus", "conditions": "poxin 5 nM, 50 μM cGAMP"}, "[2]": {"system": "poxin", "assay": "Poxin cGAMP hydrolysis tracking, HPLC analysis", "format": "biochemical, Orthopoxvirus", "conditions": "poxin 5 nM, 50 μM cGAMP"}},
  "data": [
    {"smiles": "Nc1nc2c(ncn2[C@@H]2O[C@@H]3COP(=O)(O)O[C@H]4[C@@H](O)[C@H](n5cnc6c(N)ncnc65)O[C@@H]4COP(=O)(O)O[C@@H]2[C@@H]3O)c(=O)[nH]1", "note": "[cGAMP, 2′3-cGAMP]", "values": [
      {"measurement": "cGAMP percent cleavage FP Assay", "setting": "[1]; 0 min", "result": 0, "unit": "%"},
      {"measurement": "cGAMP percent cleavage FP Assay", "setting": "[1]; 10 min", "result": 28, "unit": "%"},
      {"measurement": "cGAMP percent cleavage FP Assay", "setting": "[1]; 20 min", "result": 60, "unit": "%"},
      {"measurement": "cGAMP percent cleavage FP Assay", "setting": "[1]; 30 min", "result": 78, "unit": "%"},
      {"measurement": "cGAMP percent cleavage FP Assay", "setting": "[1]; 40 min", "result": 89, "unit": "%"},
      {"measurement": "cGAMP percent cleavage FP Assay", "setting": "[1]; 50 min", "result": 98, "unit": "%"},
      {"measurement": "cGAMP percent cleavage FP Assay", "setting": "[1]; 70 min (assumed 100% cleavage)", "result": 100, "unit": "%"},
      {"measurement": "cGAMP percent cleavage HPLC", "setting": "[2]; 0 min", "result": 0, "unit": "%"},
      {"measurement": "cGAMP percent cleavage HPLC", "setting": "[2]; 10 min", "result": 32, "unit": "%"},
      {"measurement": "cGAMP percent cleavage HPLC", "setting": "[2]; 20 min", "result": 59, "unit": "%"},
      {"measurement": "cGAMP percent cleavage HPLC", "setting": "[2]; 30 min", "result": 71, "unit": "%"},
      {"measurement": "cGAMP percent cleavage HPLC", "setting": "[2]; 40 min", "result": 83, "unit": "%"},
      {"measurement": "cGAMP percent cleavage HPLC", "setting": "[2]; 50 min", "result": 92, "unit": "%"},
      {"measurement": "cGAMP percent cleavage HPLC", "setting": "[2]; 60 min", "result": 97, "unit": "%"},
      {"measurement": "cGAMP percent cleavage HPLC", "setting": "[2]; 70 min (product peak assumed 100% cleavage)", "result": 100, "unit": "%"}
    ]}
  ]
}
